{"source": "paper doi:10.1101/2021.02.25.432969", "biological_target": "spike Var3 (N439K/D614G), cell surface expressed (SARS-CoV-2) (UniProt P0DTC2)", "experiment": "flow cytometry on cells", "data": [{"substance": "CB6 (antibody)", "values": [{"measurement": "fold reduction in binding against D614G", "result": "< 2", "unit": "fold"}]}]}
